# Measured values published in article PMC11527256.
# Biological target: Cdu1^CA, catalytically inactive Cdu1(130-401) with C345 mutated to Ala (Chlamydia trachomatis) (UniProt B0B9A0)
# Assay: ITC
substance,measurement,value
"mono-ubiquitin (wildtype, tag-free) (from UniProt P0CG48 1-76) (natural protein)",Kd,6.91 µM
same,dH,1660 cal/mol
same,stoichiometry N,0.81
